Consider ten molecules from article PMC9852841, “Expanding the toolbox of metabolically stable lipid prodrug strategies” (Frontiers in Pharmacology, 2023).

The data set deals with VSV pseudotype HIV-like viral particles. In kind it is cell-based.

Each structure is given as a SMILES string. The amount applied is not stated for every result. The source's definition of the ratio is not given here.

With `CCCCCCCCOCCCCCOCCCCCOP(=O)(O)CO[C@H](C)Cn1cnc2c(N)ncnc21.N` [Compound 11, Ammonium 5-(5-octoxypentoxy)pentoxy-[[(1R)-2-(6-aminopurin-9-yl)-1-methyl-ethoxy]methyl]phosphinate], the Therapeutic index is recorded as >25a.

As for `CCCCCCCCCCCCCCCCCOCCOP(=O)(O)CO[C@H](C)Cn1cnc2c(N)ncnc21.N` [Compound 18, Ammonium 2-heptadecoxyethoxy-[[(1R)-2-(6-aminopurin-9-yl)-1-methyl-ethoxy]methyl]phosphinate], the Therapeutic index is listed as 23,200.

Regarding `CCCCCCCCCCCCCCCOCCCCOP(=O)(O)CO[C@H](C)Cn1cnc2c(N)ncnc21.N` [Compound 19, Ammonium 4-pentadecoxybutoxy-[[(1R)-2-(6-aminopurin-9-yl)-1-methyl-ethoxy]methyl]phosphinate], the Therapeutic index was >3,330.

Take `CCCCCCCCCCCCCCOCCCCCOP(=O)(O)CO[C@H](C)Cn1cnc2c(N)ncnc21.N` [Compound 20, Ammonium [(1R)-2-(6-aminopurin-9-yl)-1-methyl-ethoxy]methyl-(5-tetradecoxypentoxy)phosphinate]: the Therapeutic index is listed as >1,920.

In the case of `CCCCCCCCCCCCCCCCCCOCCOP(=O)(O)CO[C@H](C)Cn1cnc2c(N)ncnc21.N` [Compound 21, Ammonium 2-octadecoxyethoxy-[[(1R)-2-(6-aminopurin-9-yl)-1-methyl-ethoxy]methyl]phosphinate], the Therapeutic index was 17,900.

`C[C@H](Cn1cnc2c(N)ncnc21)OCP(=O)(O)OCCOCCCCCCCCCCCCCC#CC(F)(F)F.N` [Compound 32, Ammonium 2-((16,16,16-trifluorohexadec-14-yn-1-yl)oxy)ethyl (R)-(((1-(6-amino-9h-purin-9-yl)propan-2-yl)oxy)methyl)phosphonate]: the Therapeutic index is >6,250.

Consider `C[C@H](Cn1cnc2c(N)ncnc21)OCP(=O)(O)OCCOCCCCCCCCCCCCCCC#CC(F)(F)F.N` [Compound 33, Ammonium 2-((17,17,17-trifluoroheptadec-15-yn-1-yl)oxy)ethyl (R)-(((1-(6-amino-9h-purin-9-yl)propan-2-yl)oxy)methyl)phosphonate], for which the Therapeutic index is >9,430.

Turning to `C[C@H](Cn1cnc2c(N)ncnc21)OCP(=O)(O)OCCOCCCCCCCCCCCCCCCC(F)(F)F.N` [Compound 36, Ammonium 2-((16,16,16-trifluorohexadecyl)oxy)ethyl (R)-(((1-(6-amino-9H-purin-9-yl)propan-2-yl)oxy)methyl)phosphonate], the Therapeutic index is >11,400.

Turning to `C[C@H](Cn1cnc2c(N)ncnc21)OCP(=O)(O)OCCOCCCCCCCCCCCCCCCCC(F)(F)F.N` [Compound 37, Ammonium 2-((17,17,17-trifluoroheptadecyl)oxy)ethyl (R)-(((1-(6-amino-9h-purin-9-yl)propan-2-yl)oxy)methyl)phosphonate], the Therapeutic index is recorded as 6,750.

On to `C[C@H](Cn1cnc2c(N)ncnc21)OCP(=O)(O)OCCOCCCCCCCCCCCCc1ccc(S(F)(F)(F)(F)F)cc1.N` [Compound 42, Ammonium [(1R)-2-(6-aminopurin-9-yl)-1-methyl-ethoxy]methyl-[2-[12-[4-(pentafluorosulfanyl)phenyl]dodecoxy]ethoxy]phosphinate], for which the Therapeutic index is on record as >3,940.
